Data from publication PMC12806164, “Epithelial Heparan Sulfate Promotes Staphylococcus aureus Corneal Infection by Inhibiting Cathelicidins” (Proteoglycan research, 2025).

System: CRAMP
Assay: ITC of HP and 2ODS-HP binding to CRAMP
Parameters: species or system mouse
Settings: 25.0°C, 12.5 μM CRAMP in cell, titrated with 25 μM HP, 50 mM HEPS pH 7.4, 150 mM NaCl
Method: FIGURE 4 | 2-O-sulfated heparan compounds directly bind to CRAMP with high affinity. Alexa 647-conjugated CRAMP (0.5 μM) was incubated with Affi-Gel HP beads without or with 20 μg/mL of HP, NDS-HP, 2ODS-HP, or 6ODS-HP for 1 h at room temperature. CRAMP fluorescence associated with Affi-Gel HP beads was analyzed by flow cytometry. Results are shown as (A) % CRAMP binding and (B) mean fluorescence intensity (MFI) of CRAMP binding (n = 4, ***p < 0.001, ****p < 0.0001). ITC analyses for CRAMP binding to HP were performed at 25°C using a MicroCal iTC 200 titration calorimetry. The fitted heat curves of titrating CRAMP binding to (C) HP and (D) 2ODS-HP are shown.
ITC of CRAMP binding to HP and modified HP was carried out at 25.0°C using a MicroCal iTC 200 titration calorimetry system (Malvern, UK). A stock solution of CRAMP was diluted to 12.5 μM in 50 mM HEPS, pH 7.4, 150 mM NaCl, and approximately 300 μL of this solution was loaded into the ITC cell and titrated with 25 μM of HP or 2ODS-HP in the same buffer. Briefly, titration injection of HP or 2ODS-HP consisted of a first injection of 0.4 μL followed by 18 consecutive injections of 2 μL of 0.8 s duration and with a 2.5 min interval between injections. […] The enthalpy change of binding (ΔH), the binding affinity, and the binding stoichiometry were determined.

Q: Which “Binding stoichiometry (ITC)” value does the source give for heparin [HP] here?
A: Its value is 25 moles of CRAMP per mole of HP.

Q: And the “Enthalpy change of binding (ITC)” value (single set of identical sites model)?
A: Its value is -40 kcal/mol.
